The assay addresses PDF-2180 RBD–hFc (domain B fused to human IgG Fc domain) (PDF-2180 (bat coronavirus, infects Pipisrellus hesperidus)).

The results in this text go back to article PMC9734910, “Close relatives of MERS-CoV in bats use ACE2 as their functional receptors” (2022).

In general, Kd refers to the concentration at which binding is half-saturated. Substance “soluble Bat37ACE2 ectodomain (Pipistrellus pipistrellus ACE2)” yielded a Kd of 1.29 nM.
